A mixed list of measured activities; the numbers were collected in NIAID ChemDB.

Shared fields: growth or infection tests; organism: Mycobacterium tuberculosis

Blank or dashed fields: not listed here. A number after MIC or MFC names an inhibition level or a share of isolates. MIC bound: limit read from a one-dose screen. Lines come from different laboratories, so protocols vary. Percent inhibition refers to the dose given; in toxicity tests it is the harm to the cells. ECn is the concentration giving n% inhibition of infection, replication or growth.

structure	cells	measure	read by	conditions	strain	dose	result
CCCCCCCC/C=C\CCCCCCCc1cc(O)cc(O)c1	-	MIC	-	-	H37Rv	-	20.8 µg/mL
Cc1ccc2c(c1)c1c3n2CCN(C(=O)CCC(=O)O)C3CCC1	-	MIC	-	-	ATCC 607	-	250 µg/mL
O=C(NC1CCCCCCC1)c1c(C2CCCCC2)nc2cc(Cl)ccn12	-	MIC90	resazurin	-	H37Rv	-	>168 µM
C[C@@H](O)[C@H]1C(=O)N2C(C(=O)O)=C(SCCN=CN)C[C@H]12	-	MIC	-	-	Isolate 3	-	4 µg/mL
CCCCCCC(=O)c1cc(O)cc(O)c1	-	MIC	-	-	H37Rv	-	19 µg/mL
CCOC(=O)C1=C(C)NC(=S)NC1c1ccccc1	-	EC50	-	-	H37Rv	-	>10 µg/mL
O=C1c2cc(F)ccc2-n2c1nc1ncccc1c2=O	-	MIC	-	-	MDR 10038	-	<0.5 µg/mL
O=C(N/N=C/c1ccc(Cl)cc1)c1ccc(Nc2ccccc2)cc1	-	MIC	-	-	-	-	>40 µg/mL
C=C1C(=O)O[C@@H]2/C=C(\C)C3C[C@H](O)[C@@](C)(CC(OC(=O)/C(C)=C\C)[C@@H]12)O3	-	MIC bound	BACTEC	-	H37Rv	-	>12.5 µg/mL
Cc1ccc(C(=O)Nn2c(C)ccc2C)cc1	-	MIC	-	-	Erdman	-	>8 µg/mL
NNC(=O)c1ccccc1Cl	-	MIC	-	-	-	-	40 µg/mL
Cc1cc(C)nc(NS(=O)(=O)c2ccc(NC(=O)c3cccnc3Nc3cccc(Cl)c3)cc2)n1	-	MIC bound	BACTEC	-	H37Rv	-	>12.5 µg/mL
O=C(NNS(=O)(=O)c1ccc([N+](=O)[O-])cc1)c1ccccc1	-	MIC	-	-	-	-	100 µg/mL
COC(=O)[C@]1(C)CCC[C@]2(C)C3=C[C@@H](O)[C@@]4(C(C)C)O[C@H]4[C@]3(O)CC[C@@H]12	-	MIC bound	BACTEC	-	H37Rv	-	>12.5 µg/mL
COc1cc(O)c2c(=O)c(OC)c(-c3ccc(O)cc3)oc2c1OC	-	MIC	resazurin	-	H37Rv	-	>50 µg/mL
Cc1c(CN2CCSCC2)cc(-c2ccccc2F)n1-c1cccc2ccccc12	-	MIC	-	-	-	-	4 µg/mL
Cc1ccc2c(c1)c1c3n2CCN(CC(C)O)C3CCC1	-	MIC	-	-	H37Rv	-	64 µg/mL
O=C1Nc2cnc(Cl)nc2Nc2cc(Cl)ccc21	-	MIC bound	BACTEC	-	H37Rv	-	>12.5 µg/mL
C[C@H]1COc2c(N3CCN(C)CC3)c(F)cc3c(=O)c(C(=O)O)cn1c23	-	MIC	-	-	9R	-	0.5 µg/mL
Cc1nc([N+](=O)[O-])c2n1CC(C)O2	-	MIC	-	-	H37Rv	-	>10 µg/mL
O=C1c2ccccc2-n2c1nc1ncccc1c2=O	-	MIC	-	-	H37Rv	-	1 µg/mL
Cc1ccc(C)n1NC(=O)c1ccncc1	-	MIC	-	-	Erdman	-	3.2 µg/mL
Cc1ccc2nc3n(c(=O)c2c1)-c1ccc(F)cc1C3=O	-	MIC	-	-	MDR 10038	-	1 µg/mL
Cc1c(CN2CCN(C)CC2)cc(-c2ccccc2Cl)n1-c1cccc2ccccc12	-	MIC	-	-	-	-	4 µg/mL
Cc1nc2cc(Cl)ccn2c1C(=O)NC1CCCCCCC1	-	MIC90	resazurin	-	H37Rv	-	>200 µM
Cc1ccc2c(c1)c1c3n2CCN(C=O)C3CCC1	-	MIC	-	-	ATCC 607	-	64 µg/mL
CCCCCCCCCCCC(=O)NN=C(C)C	-	MIC	-	-	-	-	>200 µg/mL
C=C1C(=O)OC2/C=C(/C)C(OC(C)=O)C/C=C(/C)C(O)C(OC(=O)/C(C)=C/C)C12	-	inhibition	BACTEC	-	H37Rv	12.5 µg/mL	1%
O=c1[nH]ncc2ccccc12	-	MIC	-	-	-	-	10 µg/mL
C[C@H](CC[C@H]1OC1(C)C)[C@H]1CC[C@@]2(C)[C@@H]3CC[C@H]4C(C)(C)C(=O)CC[C@@]45C[C@@]35CC[C@]12C	-	MIC	-	-	-	-	6 µg/mL
CC/C(C)=N\NC(=O)CC(=O)N/N=C(/C)CC	-	MIC	-	-	-	-	200 µg/mL
NCC[C@H](O)C(=O)N[C@@H]1C[C@H](N)[C@@H](O[C@H]2O[C@H](CN)[C@@H](O)[C@H](O)[C@H]2O)[C@H](O)[C@H]1O[C@H]1O[C@H](CO)[C@@H](O)[C@H](N)[C@H]1O	-	MIC	-	-	1R	-	2.5 µg/mL
CC(C)=C[C@H](O)C[C@@H](C)[C@H]1CC[C@@]2(C)C3=C(CC[C@]12C)[C@@]1(C)CCC(=O)C(C)(C)[C@@H]1CC3	-	MIC	-	-	-	-	>128 µg/mL
COc1cc(O)cc(CCCCCCC/C=C\CCCCCCCc2cc(O)cc(O)c2)c1	-	MIC	-	-	H37Rv	-	160 µg/mL
CCOC(=O)C1=C(C)NC(C)=C(C(=O)OCC)C1c1ccccc1	-	EC50	-	-	H37Rv	-	>10 µg/mL
COc1cc2cc3c4cc(OC)c(OC)cc4cc[n+]3c(C)c2cc1OC	-	MIC bound	BACTEC	-	H37Rv	-	>12.5 µg/mL
CO[C@H]1/C=C/O[C@@]2(C)Oc3c(C)c(O)c4c(O)c(c(/C=N/N5CCN(C)CC5)c(O)c4c3C2=O)NC(=O)/C(C)=C\C=C\[C@H](C)[C@H](O)[C@@H](C)[C@@H](O)[C@@H](C)[C@H](OC(C)=O)[C@@H]1C	-	MIC	broth dilution	-	MTCC 200	-	500 µg/mL
C[C@]1(COc2ccc(N3CCC(Oc4ccc(OC(F)(F)F)cc4)CC3)cc2)Cn2cc([N+](=O)[O-])nc2O1	-	MIC90	-	-	56 strains (EMB-susceptible)	-	0.012 µg/mL
CC1(C)S[C@@H]2[C@H](NC(=O)[C@H](N)c3ccc(O)cc3)C(=O)N2[C@H]1C(=O)O	-	MIC	-	-	H37Ra	-	>16 µg/mL
Cc1ccc2c(c1)c1c3n2CCNC3CCC1	-	MIC	-	-	H37Rv	-	8 µg/mL
NNC(=O)CNC(=O)c1ccccc1	-	MIC	-	-	-	-	100 µg/mL
Cc1c(CN2CCSCC2)cc(-c2ccccc2F)n1-c1ccccc1	-	MIC	-	-	-	-	4 µg/mL
O=S(=O)(NNc1ccccc1)c1ccc(Cl)cc1	-	MIC	-	-	-	-	>200 µg/mL
Nc1ccc2c(n1)NCC/C2=N\Nc1ccc(F)cc1	-	MIC bound	BACTEC	-	H37Rv	-	≤12.5 µg/mL
C1=C2CCCC/C=C\C=C\CCN3CC[C@@H]4[C@H](CCCCCC/C=C\C=C/CCN(C2)C[C@H]14)C3	-	MIC	-	-	H37Rv (ATCC 25618)	-	6.25 µg/mL
CCN(CC)CCNc1ccc(CO)c2oc3cc(Cl)ccc3c(=O)c12	-	inhibition	BACTEC	-	H37Rv	12.5 µg/mL	-7%
Clc1ccc(Nc2cc3nc4ccccc4n(-c4ccc(Cl)cc4)c-3cc2=NC2CCCCC2)cc1	-	MIC	-	-	H37Rv	-	0.5 µg/mL
COc1ccc(NCCN(C)C)c2c(=O)c3ccccc3sc12	-	MIC	BACTEC	-	H37Rv	-	12.5 µg/mL
NNC(=O)c1ccncc1	-	MIC	fluorescence / absorbance	-	H37Rv	-	0.64 µM
Cc1cc(O)c(C(=O)CC2(O)C(=O)Nc3c(Cl)cc(Cl)cc32)c(=O)o1	-	inhibition	BACTEC	-	H37Rv	12.5 µg/mL	-8%
CCOC(=O)C1=C(C)NC(=O)NC1c1ccccc1	-	EC50	-	-	H37Rv	-	>10 µg/mL
NNC(=O)CNc1cccc(Cl)c1F	-	MIC	BACTEC	-	H37Rv	-	≥12.5 µg/mL
CC(=O)NNS(=O)(=O)c1ccc(Cl)cc1	-	MIC	-	-	-	-	>200 µg/mL
O=C(O)c1cc(=O)n(CCCCCCn2c(=O)cc(C(=O)O)[nH]c2=O)c(=O)[nH]1	-	MIC bound	resazurin	-	H37Rv	-	>6.25 µg/mL
COc1cc(O)c2c(=O)c(OC)c(-c3ccc(O)cc3)oc2c1O	-	MIC	resazurin	multidrug-resistant	Clinical isolates	-	>50 µg/mL
CCOC(=O)C1=C(C)NC(=O)NC1c1ccccc1Cl	-	EC50	-	-	H37Rv	-	>10 µg/mL
O=C(O)C1C2OC3C(OC(=O)C31)C2Br	-	MIC bound	BACTEC	-	H37Rv	-	>12.5 µg/mL
O=C1c2ccccc2-n2c1nc1ccc(Br)cc1c2=O	-	MIC	-	-	MDR 10038	-	1.3 µg/mL
N#CCc1nc2ccccc2c(=O)[nH]1	-	inhibition	BACTEC	-	H37Rv	12.5 µg/mL	99%
Clc1ccc(Nc2cc3nc4ccccc4n(-c4ccc(Cl)cc4)c-3cc2=NC2CCCCCC2)cc1	-	MIC	-	-	H37Rv	-	0.5 µg/mL
Cc1cc(NS(=O)(=O)c2ccc(NCc3c4ccccc4nc4cc(Cl)ccc34)cc2)no1	-	inhibition	BACTEC	-	H37Rv	12.5 µg/mL	20%
CCCCCCCCCCN=c1cc2n(-c3ccc(Cl)cc3)c3ccccc3nc-2cc1Nc1ccc(Cl)cc1	-	MIC	-	-	H37Rv	-	2 µg/mL
CO[C@@H]1C2Cc3ccccc3C(c3ccccc3)C2[C@H](OC)[C@H]2O[C@@H](c3ccccc3)O[C@H]21	-	inhibition	BACTEC	-	H37Rv	12.5 µg/mL	0%
O=C(NCCCC1CCCCC1)c1c(C2CCCCC2)nc2cc(Cl)ccn12	-	MIC90	resazurin	-	H37Rv	-	>162 µM
Cc1ccc2c(c1)C(=O)c1nc3ccccc3c(=O)n1-2	-	MIC	-	-	H37Rv	-	5 µg/mL
NC1CCN(c2c(F)cc3c(=O)c(C(=O)O)cn(C4CC4)c3c2Cl)C1	Macrophages	inhibition	-	inside macrophages	H37Rv	0.1 µg/mL	70%
C=C1C(=O)O[C@@H]2/C=C(\C)CC/C=C(\C)CC[C@@H]12	-	MIC	-	-	-	-	32 µg/mL
Cc1c(CN2CCN(C)CC2)cc(-c2ccccc2)n1-c1cccc2ccccc12	-	MIC	-	-	-	-	>16 µg/mL
CCC1Cn2cc([N+](=O)[O-])nc2O1	-	MIC	-	-	H37Rv	-	0.15 µg/mL
Cc1c(CN2CCN(C)CC2)cc(-c2ccc(F)cc2)n1-c1ccccc1Cl	-	MIC	-	-	-	-	2 µg/mL
CN1CCCCC1CCN1c2ccccc2Sc2ccc(S(C)=O)cc21	-	MIC bound	BACTEC	-	H37Rv	-	>12.5 µg/mL
CCCCCc1cc(OC)c(C)c(OC)c1	-	MIC	-	-	H37Rv	-	≤2.5 µg/mL
C/C(O)=C(\C=N\C(=S)Nc1ccccc1)C(=O)Nc1ccccc1C	-	inhibition	BACTEC	-	H37Rv	6.25 µg/mL	13%
C=CN(O)C[C@@H](CCCC)C(=O)N[C@H](C(=O)N(C)C)C(C)(C)C	-	MIC90	-	-	-	-	0.2 µg/mL
O=C1CCC(N2C(=O)C3C(C2=O)C2(Cl)C(Cl)=C(Cl)C3(Cl)C2(Cl)Cl)C(=O)N1	-	MIC bound	BACTEC	-	H37Rv	-	>12.5 µg/mL
Cc1cccc2c(=O)n3c(nc12)C(=O)c1ccccc1-3	-	MIC	-	-	MDR 10038	-	5 µg/mL
CO[C@@]1(NC(=O)Cc2cccs2)C(=O)N2C(C(=O)O)=C(COC(N)=O)CS[C@@H]21	-	MIC	-	-	Isolate 1	-	>16 µg/mL
Cc1ccc2c(c1)c1c3n2CCN(CC(O)CNC2CCC2)C3CCC1	-	MIC	-	-	H37Rv	-	64 µg/mL
NCCC[C@H](N)CC(=O)N[C@H]1CNC(=O)[C@H]([C@H]2C[C@H](O)NC(N)=N2)NC(=O)/C(=C/NC(N)=O)NC(=O)[C@H](CO)NC(=O)[C@H](CO)NC1=O	-	MIC	-	-	H37RV (VIM-R)	-	>40 µg/mL
COc1cc2nc3n(c(=O)c2cc1OC)-c1ccccc1C3=O	-	MIC	-	-	MDR 10038	-	10 µg/mL
Cc1ccc(C)n1NC(=O)c1ccc([N+](=O)[O-])cc1	-	MIC	-	-	Erdman	-	32 µg/mL
COC(=O)C1C(O)C(C)C(OC(C)=O)C(C)/C=C\C=C(/C)C(=O)Nc2c(C)c(OC(C)=O)c3c(c2O)C(=O)C(C)=C2OCOC(=C23)/C(C)=C/C(C)(O)C(O)C(C)C1O	-	MIC	-	-	TAC-R	-	1.6 µg/mL
Cc1c(CN2CCSCC2)cc(-c2ccccc2)n1-c1ccccc1F	-	MIC	-	-	-	-	8 µg/mL
COc1cc(O)cc(CCCCCCC/C=C\CCCCCCCc2cc(O)c(C)c(O)c2)c1	-	MIC	-	-	H37Rv	-	47.1 µg/mL
Cc1c(CN2CCSCC2)cc(-c2ccc(F)cc2)n1-c1ccccc1F	-	MIC	-	-	H37Rv	-	2 µg/mL
O=C(O)[C@H]1/C(=C/CO)O[C@@H]2CC(=O)N21	-	MIC	-	-	Isolate 4	-	>16 µg/mL
CC[C@@H](CO)NCCN[C@@H](CC)CO	-	MIC	broth dilution	-	MTCC 200	-	40 µg/mL

The last 8 rows once more:

structure | cells | measure | read by | conditions | strain | dose | result
COc1cc2nc3n(c(=O)c2cc1OC)-c1ccccc1C3=O | - | MIC | - | - | MDR 10038 | - | 10 µg/mL
Cc1ccc(C)n1NC(=O)c1ccc([N+](=O)[O-])cc1 | - | MIC | - | - | Erdman | - | 32 µg/mL
COC(=O)C1C(O)C(C)C(OC(C)=O)C(C)/C=C\C=C(/C)C(=O)Nc2c(C)c(OC(C)=O)c3c(c2O)C(=O)C(C)=C2OCOC(=C23)/C(C)=C/C(C)(O)C(O)C(C)C1O | - | MIC | - | - | TAC-R | - | 1.6 µg/mL
Cc1c(CN2CCSCC2)cc(-c2ccccc2)n1-c1ccccc1F | - | MIC | - | - | - | - | 8 µg/mL
COc1cc(O)cc(CCCCCCC/C=C\CCCCCCCc2cc(O)c(C)c(O)c2)c1 | - | MIC | - | - | H37Rv | - | 47.1 µg/mL
Cc1c(CN2CCSCC2)cc(-c2ccc(F)cc2)n1-c1ccccc1F | - | MIC | - | - | H37Rv | - | 2 µg/mL
O=C(O)[C@H]1/C(=C/CO)O[C@@H]2CC(=O)N21 | - | MIC | - | - | Isolate 4 | - | >16 µg/mL
CC[C@@H](CO)NCCN[C@@H](CC)CO | - | MIC | broth dilution | - | MTCC 200 | - | 40 µg/mL